In series [1] the test system is P-gp [P-glycoprotein; MDR1 (multidrug resistance 1)]. To be noted: cited from earlier work.
In another series the test system is A173V+T304I mutant virus. Nature of the series: Viral passaging in the presence of nirmatrelvir (scheme 4) in VeroE6-Pgp-KO cells. The following applies: nirmatrelvir 7.3 μM (50×EC50), scheme 4, two passages.

Structures are written as SMILES.

Turning to `CC(C)(C)[C@H](NC(=O)C(F)(F)F)C(=O)N1C[C@H]2[C@@H]([C@H]1C(=O)N[C@H](C#N)C[C@@H]1CCNC1=O)C2(C)C` [Nirmatrelvir], the “P-gp efflux pump substrate” value in series [1] is “substrate of the efflux pump P-gp”. Moreover, the “virus induced CPE or viral RNA” value in the series on A173V+T304I mutant virus is “no virus induced CPE or viral RNA could be detected”.

The values are drawn from publication PMC11268423 (Science Advances, 2024).
